The supplement of paper PMC9931576
Human monoclonal antibodies against the spike receptor-binding domain (heavy:light variable regions). IC50 against pseudoviruses bearing the spike of naturally observed variants; lower = stronger; >10 µg/ml means not reached at the top dose. No active / inactive call. The stated detection limit is 0.0005 µg/ml; values near or below 0.001 µg/ml lie at the floor of the assay.

B1: BD56-933 (protein)
chain 1: QVQLVESGGGVVQPGRSLRLSCAASGFTFRRYGMHWVRQAPGKGLIWVAVISYDGDKKYYADSVKGRFTISRDNSKNTLYLQMDSLRAEDTAVYYCAKVLGEYCSAGTCYGDYFDYWGQGTLVTVSS
chain 2: DIQMTQSPSSLSASIGDRVTITCRASQGISNSLAWYQRKPGKAPKLLLYDASRLESGVPSRFSGSGSGTDYTLTISSLQPEDFATYYCQQYYSTPPWTFGQGTKVEIK
B2: BD56-926 (protein)
chain 1: QVQLVESGGGLVKPGGSLRLSCAASGFTFSDHYMGWVRQAPGKGLEWVSYISNSSSYTNYADSVKGRFTIFRDNAKNSLYLRMTSLRAEDTAVYYCARVHSVASYDTLTGYYRVGDAEYFQHWGQGTLVTVSS
chain 2: SYVLTQPPSVSVAPGKTARITCGGNNLGTKSVHWYHQKPGQAPVLVIYYDSNRPSGIPERFSGSKSGNTATLTISRVEAGDEADYYCQVWDSSSDHVVFGGGTKLTVL
B3: BD56-928 (protein)
chain 1: QLQLQESGPGLVKPSETLSLTCTVSGGSVNSGRYYWSWIRQPPGKGLEWIASIFFGGSTYYNPSLKSRVIISVDTSKNQFNLKLRSVTAADTAVYYCARGPGVLGEWGQGTLVTVSS
chain 2: DIQMTQSPSSLSASVGDRVTITCRASQGISNSLAWYQQKPGKAPKLLLYGASTLESGVPSRFSGSGSGTDFTLTISSLQPEDFATYYCQHYYSTWTFGQGTKVEIK
B4: BD56-923 (protein)
chain 1: QVHLVESGGGVVQPGRSLRLSCAASGFTFSTYGMYWVRQAPGKGLEWVALIWYDGSNTDYADSVKGRFTISRDNSKNTLYLQMNSLRAEDTAVYYCAKKGGGPYCGGDCSFSYLDYWGQGTLVTVSS
chain 2: DIQMTQSPSTLSASVGDRVTITCRASQSVSNWLAWYRQEPGKAPKLLIYEASNLETGVPSRFSGSGSGTEFTLTISSVQPDDFATYYCQQYNGFSSFGQGTKLEIK
B5: BD56-924 (protein)
chain 1: EVQLVESGGGLIQPGGSLRLSCAASGFTFSSYDMHWVRQGTGQRLEWVSVIGTAGDTYYPDSVKGRFTISRENAKNSLYLQMNSLRAGDTAVYYCARGNYDSSGYFVYFDYWGQGTLVTVSS
chain 2: DIQMTQSPSSLSASVGDRVTITCRASQSISSYLNWYHQKPGKAPKLLIYAASTLQSGVPSRFSGSGSGTDFTLTISSLQPEDFATYYCQQSYIIPSYTFGQGTELEIK
B6: BD56-929 (protein)
chain 1: QVQLVESGGGVVQPGRSLRLSCAASGFTFNKYGMHWVRQAPGKGLEWVAIILYDGSNKYYADSVKGRFTISRDNSKNTLYLQMNSLRAEDTAVYYCAKNGQGYGSTWYYFDYWGQGTLVTVSS
chain 2: DIQMTQSPSSLSASVGDRVTITCQASQDISNYLNWYQQKPGKPPKLLIYDASDLETGVPSRFSGSGSGTDFTFTINSLQPEDIATYYCQQYDNFPPTFGQGTKLEIK

Legend:
Assay in all cases: pseudovirus neutralization IC50; higher = weaker neutralization
[1] = target: SARS-CoV-2 Omicron BA.1 spike pseudovirus
Procedure: (§1)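 Single-round VSV luciferase pseudovirus mixed with antibody dilutions for 1 h and put on Huh-7 cells for about a day; IC50 from the dose curve.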

[2] = target: SARS-CoV-2 Omicron BA.2 spike pseudovirus
Procedure: as §1

[3] = target: SARS-CoV-2 Omicron BA.2.75 spike pseudovirus
Procedure: as §1

[4] = target: SARS-CoV-2 Omicron BA.5 spike pseudovirus
Procedure: as §1

[5] = target: SARS-CoV-2 Omicron BQ.1.1 spike pseudovirus
Procedure: as §1

[6] = target: SARS-CoV-2 Omicron XBB spike pseudovirus
Procedure: as §1

[7] = target: SARS-CoV-2 early D614G spike pseudovirus
Procedure: as §1

Binder	pseudovirus neutralization IC50 [1] [µg/mL]	pseudovirus neutralization IC50 [2] [µg/mL]	pseudovirus neutralization IC50 [3] [µg/mL]	pseudovirus neutralization IC50 [4] [µg/mL]	pseudovirus neutralization IC50 [5] [µg/mL]	pseudovirus neutralization IC50 [6] [µg/mL]	pseudovirus neutralization IC50 [7] [µg/mL]
B1	> 10	> 10	> 10	> 10	> 10	> 10	> 10
B2	0.496	0.627	0.298	0.485	> 10	3.16	0.0141
B3	0.331	0.238	0.0144	> 10	> 10	> 10	0.00279
B4	> 10	> 10	> 10	> 10	> 10	> 10	> 10
B5	> 10	> 10	> 10	> 10	> 10	> 10	> 10
B6	> 10	> 10	> 10	> 10	> 10	> 10	9.19
